# Target: Stx2 toxoid (Escherichia phage 933W, UniProt P09386)
# Assay type: binding, Escherichia coli O157:H7
# Conditions: read-out: apparent Kd of Stx2
substance,measurement,value
"Globotriaosyl ceramide, Ceramide trihexoside [Gb3]",Kd,6.4 nM

# — publication PMC3278406 (PLoS ONE, 2012)
